Species: Rattus norvegicus
Assay: Toxicity in rat allografted with rat Walker 256 cells
Assay type: organism-based

Structure (SMILES): O=C(O)c1ccc(N(CCI)CCI)cc1
- log1/CLD50: 3.3

Structure (SMILES): CC(=O)Sc1ccc(N(CCBr)CCBr)cc1
- log1/CLD50: 3.79
